Paper PMC12658140 (Nature Communications, 2025)

Molecular target: H3N8 A/mallard/Alberta/362/2017 HA ectodomain (influenza A virus H3N8 …)
Assay: cryo-EM structure

B1: AG2-G02 Fab (Fab, V domains shown)
VH: VQLVQSGAEMKKPGASVKVSCKASGYTFSAYYIHWVRQAPGQGLEWMGRINTDSGGTNFAQQFEGRVTMTRDTSISTAYMELSSLRSDDTAVYYCARGYDFWLGSYRAGGWFDPWGQGTLVTVSS
VL: not shown
stoichiometry N: 3 copies per HA trimer

B2: 240-14 IgA 2F02 Fab (Fab, V domains shown)
VH: EVQLLESGGGLVQPGGSLRLSCAASGFTFSTYAMSWVRQAPGKGLEWVSTISGSGGSTYDAESVKGRFTISRDNSKNTLYLQMNSLRAEDTAVYYCAKEGGDFWSGYYANWFDPWGQGTLVTVSS
VL: QSALTQPRSVSGSPGQSVTISCTGTRSDVGGYNYVSWYQQHPGKAPKVIIYDVKKRPSGVPDRFSGSKSGNTASLTISGLQAEDEADYYCSAFAGSHTLFGGGTKVTVL
stoichiometry N: 3 copies per HA trimer
